The entries are a selection whose mix differs from that of the whole data set.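 Treatment: one concentration, 48 hours, 96-well format. Scoring: percent growth, with anything below 10 considered active.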 Active and inactive are the calls of the source.
What was measured:
Assay in all cases: NCI-60 one-dose screen, 48 h (100 = growth as untreated, 0 = no growth, -100 = all killed)
Settings in all cases: 10 µM
NCI-H23 lung = test system: NCI-H23 lung
NCI-H226 lung = test system: NCI-H226 lung
NCI-H322M lung = test system: NCI-H322M lung
HOP-62 NSCLC = test system: HOP-62 NSCLC
NCI-H460 lung = test system: NCI-H460 lung
HOP-92 NSCLC = test system: HOP-92 NSCLC
NCI-H522 lung = test system: NCI-H522 lung
A549/ATCC NSCLC = test system: A549/ATCC NSCLC
COLO 205 colon = test system: COLO 205 colon
SF-295 CNS = test system: SF-295 CNS
SF-539 CNS = test system: SF-539 CNS
UACC-257 melanoma = test system: UACC-257 melanoma
M14 melanoma = test system: M14 melanoma
HCT-15 colon = test system: HCT-15 colon
HT29 colon = test system: HT29 colon
SNB-75 CNS = test system: SNB-75 CNS
SNB-19 CNS = test system: SNB-19 CNS
U251 CNS = test system: U251 CNS
PC-3 prostate = test system: PC-3 prostate
SK-MEL-5 melanoma = test system: SK-MEL-5 melanoma
UACC-62 melanoma = test system: UACC-62 melanoma
LOX IMVI melanoma = test system: LOX IMVI melanoma
SK-MEL-28 melanoma = test system: SK-MEL-28 melanoma
SK-MEL-2 melanoma = test system: SK-MEL-2 melanoma
EKVX NSCLC = test system: EKVX NSCLC

Measured: growth

O=C(O)Cc1ccc(N(CCCl)CCCl)cc1
inactive: NCI-H23 lung 102% | NCI-H226 lung 108% | NCI-H322M lung 98.7% | HOP-62 NSCLC 103% | NCI-H460 lung 96.3% | HOP-92 NSCLC 105% | NCI-H522 lung 85.6% | A549/ATCC NSCLC 96.6% | COLO 205 colon 109% | SF-295 CNS 98.9% | SF-539 CNS 97.3% | UACC-257 melanoma 103% | M14 melanoma 104% | HCT-15 colon 104% | HT29 colon 105% | SNB-75 CNS 96.5% | SNB-19 CNS 111% | U251 CNS 98.5% | PC-3 prostate 94% | SK-MEL-5 melanoma 111% | UACC-62 melanoma 98.7% | LOX IMVI melanoma 89.2% | SK-MEL-28 melanoma 106% | SK-MEL-2 melanoma 105% | EKVX NSCLC 98.2%

From PubChem BioAssay (NCI)
